This data set has as its system T. cruzi CA-I/72. Put plainly: Secondary screening (dose-response assay). Format: cell-based, Trypanosoma cruzi. As to conditions: dose-response curve. As to the method:
T. cruzi CA-I/72 trypomastigotes were obtained from C2C12 infected-culture supernatants after 4–7 days of infection. Cultures were maintained at 37°C with 5% CO2. […] Compounds were added at 10 mM in 50 nl per well using a Biomek FX (Beckman Coulter) for a final 10 μM concentration in 50 μl total volume, and 2,500 parasites were added in 10 μl per well. The plate was incubated for 72 hours at 37°C with 5% CO2. After the incubation, the plate was fixed with the addition of 50 μl of 8% paraformaldehyde solution, followed by two successive washing steps using PBS. Finally, a staining solution containing 0.5 μg/ml of 4',6-diamidino-2-phenylindole (DAPI) was added to each well of the plate and incubated for at least 4 hours prior to reading. Images were acquired by an IN Cell Analyzer 2000 (GE Healthcare) and analyzed by IN Cell Analyzer Developer 1.6 software. […] Numbers of host cells and intracellular amastigotes were determined based on host cell and parasite nucleus quantification, providing a measure of growth inhibition during the first 72 h of post-infection treatment compared to untreated controls. […] The host cell viability was assessed based on the total number of cells divided by the average number of cells from untreated controls (0.1% DMSO), being <0.5 considered a cytotoxic compound. This assay was performed in duplicate.
The hit selection criteria: >50% activity at 10 μM and >0.5 host cell viability in the primary screening. To determine the potency of the hit compounds, we performed a dose-response assay. EC50 values of compounds were determined applying the same assay used in the primary screening. […] Then, 50 nl of each sample were diluted in 50 μl media (DMEM H-21) and added to the experimental plate followed by incubation at 37°C with 5% CO2 for 72 h.

In the case of `COc1ccc2cc1Oc1ccc(cc1)C[C@H]1c3cc(c(OC)cc3CCN1C)Oc1c(OC)c(OC)cc3c1[C@H](C2)N(C)CC3` [SC-0011496, Tetrandrine], the Hill slope (commonly a measure of the steepness of the concentration-response curve) is on record as 1.95.
Same read-out and setting: the same measure for `O=C1OCCN1/N=C/c1ccc([N+](=O)[O-])o1` [SC-0011742, Furazolidone]: 2.81.
`NC(=O)N/N=C/c1ccc([N+](=O)[O-])o1` [SC-0011754, Nitrofural]: the Hill slope came out at 1. This molecule yielded a Hill slope (listed as Nitrofural) of 1.00.
For the molecule `COc1ccc2nc3cc(Cl)ccc3c(Nc3cc(CN4CCCC4)c(O)c(CN4CCCC4)c3)c2n1` [SC-0011799, Pyronaridine], the Hill slope turned out to be 2.03.

Source of the values: PMC4482694, “Machine Learning Models and Pathway Genome Data Base for Trypanosoma cruzi Drug Discovery” (PLoS Neglected Tropical Diseases, 2015).
